A mixed list of measured activities; the numbers were collected in NIAID ChemDB.

All rows: whole-cell or culture tests; species: Aspergillus niger; endpoint: MIC

Two numbers with a dash give a range or band. Lines come from different laboratories, so protocols vary.

CCCCCCCCCCCCCCCC(=O)NC(CCCN)C(=O)NC(CCCN)C(=O)NC(CCCN)C(=O)NC(CCCN)C(=O)NC(CCCN)C(N)=O ; strain: ATCC 64028 ; method: broth dilution ; value: 1.5 µg/mL
Nc1scc2c1c(=O)oc1ccc3ccccc3c12 ; method: broth dilution ; value: 32 µg/mL
C=C1C(=O)O[C@H]2[C@H]1[C@@H](O)C[C@]1(C)[C@@H]2[C@@H](CO)CC[C@H]1O ; strain: ATCC 6275 ; value: 0.25 µg/mL
O=C(O)CCCNCC(=O)Nc1cccc2c1C(=O)c1ccccc1C2=O ; strain: VKM F-1119 ; value: 1.9 µg/mL
Cc1cccnc1N1C(=O)CSC1c1c(C)cccc1C ; strain: NCIM 742 ; method: agar ; value: 71 µg/mL
Cc1ccc(N2NOC(=O)C2S(=O)(=O)Nc2ccc(-n3c(-c4ccccc4Cl)nc4ccccc4c3=O)cc2)cc1 ; strain: MTCC 282 ; method: broth dilution ; value: 500 µg/mL
C/C=C/[C@@H]1OC(=O)C=C[C@@H]1O ; value: 500 µg/mL
CC(C)N1CCN(c2nc(Nc3ccc(C#N)c(C(F)(F)F)c3)nc(Oc3cccc4cccnc34)n2)CC1 ; strain: MTCC 282 ; method: agar ; value: 50 µg/mL
CC(=O)[C@]1(O)Cc2c(O)c3c(c(O)c2[C@@H](O[C@H]2C[C@H](N)[C@H](O)[C@H](C)O2)C1)C(=O)c1ccccc1C3=O ; strain: NCPF 7162 ; value: 14.2 µM
CC(=O)N1CCN(c2ccc(OC[C@H]3CO[C@](Cn4ccnc4)(c4ccc(Cl)cc4Cl)O3)cc2)CC1 ; strain: MTCC 282 ; method: agar ; value: ≤3 µg/mL
Cc1ccc(N2NOC(=O)C2S(=O)(=O)Nc2ccc(-n3c(-c4cccc(Br)c4)nc4ccccc4c3=O)cc2)cc1 ; strain: MTCC 282 ; method: broth dilution ; value: 1000 µg/mL
c1ccc(C2=NN(c3ccccc3)C(c3ccc(OCCCCCCOc4ccc(C5CC(c6ccccc6)=NN5c5ccccc5)cc4)cc3)C2)cc1 ; method: broth dilution ; value: 16 µg/mL
CN1CCC(n2cc(-c3nc(-c4ccccc4)n[nH]3)nn2)CC1 ; method: agar ; value: 50 µg/mL
O=C(/C=C/c1ccc(OCCCCCCCCOc2ccc(/C=C/C(=O)c3ccccc3)cc2)cc1)c1ccccc1 ; method: broth dilution ; value: 16 µg/mL
CCOC(=O)C(C#N)C(c1cc2cc(OCC)ccc2n2nnnc12)P(=O)(OCC)OCC ; strain: NCIM 545 ; method: agar diffusion ; value: 10 µg/mL
C=C1CC(C/C(C)=C/COc2ccc3ccc(=O)oc3c2)OC1=O ; strain: MTCC 2425 ; value: 625 µg/mL
CCCCCCCCCCSCC(O)C(=O)O ; strain: ATCC 16404 ; value: 0.00553 µM
O=C(CNC(CC1C=CC1)C(=O)O)Nc1cccc2c1C(=O)c1ccccc1C2=O ; strain: VKM F-1119 ; value: 31.2 µg/mL
Cc1ccc(-c2csc(NS(=O)(=O)C3C(=O)ONN3c3ccc(C)cc3)n2)cc1 ; strain: MTCC 282 ; method: broth dilution ; value: 250 µg/mL
N#Cc1ccc(Nc2nc(Oc3cccc4cccnc34)nc(N3CCN(c4cccc(Cl)c4)CC3)n2)cc1C(F)(F)F ; strain: MTCC 282 ; method: agar ; value: 25 µg/mL
C[C@H]1[C@H](O)[C@@H](C)/C=C/C=C/C=C/C=C/C=C/C=C/C=C/[C@H](O[C@@H]2O[C@H](C)[C@@H](O)[C@H](N)[C@@H]2O)C[C@@H]2O[C@](O)(C[C@@H](O)C[C@@H](O)CC[C@H](O)[C@@H](O)C[C@@H](O)CC(=O)O[C@H]1C)C[C@H](O)[C@H]2C(=O)O ; strain: 16888 ; method: broth dilution ; value: 0.03 µg/mL
c1ccc(C2=NN(c3ccccc3)C(c3ccc(OCCCCCCCCCCOc4ccc(C5CC(c6ccccc6)=NN5c5ccccc5)cc4)cc3)C2)cc1 ; method: broth dilution ; value: 32 µg/mL
CCN1CCC(n2cc(-c3nc(-c4ccccc4)n[nH]3)nn2)CC1 ; method: agar ; value: 60 µg/mL
OC(Cn1cncn1)(Cn1cncn1)c1ccc(F)cc1F ; strain: KCTC 1231 ; value: 1.6 µg/mL
CN1CCN(c2nc(Nc3ccc(C#N)c(C(F)(F)F)c3)nc(Oc3ncnc4ccccc34)n2)CC1 ; strain: MTCC 282 ; value: >100 µg/mL
CCCCCCCC(=O)NC(CCCN)C(N)=O ; strain: ATCC 64028 ; method: broth dilution ; value: >100 µg/mL
CC(=O)N1CCC(n2cc(-c3nc(-c4ccc(Cl)cc4)n[nH]3)nn2)CC1 ; method: agar ; value: 50 µg/mL
CCCCCCCCCCCCCCCC(=O)NC(CCCN)C(=O)NC(CCCN)C(=O)NC(CCCN)C(N)=O ; strain: ATCC 64028 ; method: broth dilution ; value: 1.5 µg/mL
C[C@H]1[C@H](O)[C@@H](C)/C=C/C=C/C=C/C=C/C=C/C=C/C=C/[C@H](O[C@@H]2O[C@H](C)[C@@H](O)[C@H](N)[C@@H]2O)C[C@@H]2O[C@](O)(C[C@@H](O)C[C@@H](O)CC[C@H](O)[C@@H](O)C[C@@H](O)CC(=O)O[C@H]1C)C[C@H](O)[C@H]2C(=O)O ; method: broth dilution ; value: 1.75 µg/mL
COc1cc(/C=C/C(C)=O)ccc1O ; strain: MTCC 218 ; method: broth dilution ; value: 781 µM
Cn1c(=O)cc(Oc2nc(Nc3ccc(C#N)cc3)nc(Sc3nnc(-c4ccncc4)o3)n2)c2ccccc21 ; strain: MTCC 2825 ; method: agar ; value: 50 µg/mL
O=c1cc(Cc2c3ccccc3nc3ccccc23)c2cc(Cl)ccc2o1 ; method: agar diffusion / agar ; value: 100 µg/mL
CS(C)=O ; strain: MTCC 282 ; value: >100 µg/mL
C=C(C(=O)O[C@H]1CC(C)=CCC/C(CO)=C/[C@H]2OC(=O)C(=C)[C@H]12)C(O)CO ; strain: ATCC 6275 ; value: 0.125 µg/mL
c1ccc(C2=NN(c3ccccc3)C(c3ccc(OCCCCOc4ccc(C5CC(c6ccccc6)=NN5c5ccccc5)cc4)cc3)C2)cc1 ; method: broth dilution ; value: 6 µg/mL
Cc1ccc(C2=NN(Cc3n[nH]c(=S)n3-c3ccc(Br)cc3)C(=O)CC2)cc1 ; value: 8 µg/mL
CCCCCCCCCC(=O)NC(CCCN)C(=O)NC(CCCN)C(=O)NC(CCCN)C(=O)NC(CCCN)C(N)=O ; strain: ATCC 64028 ; method: broth dilution ; value: 100 µg/mL
O=C1CSC(c2c(Cl)cccc2Cl)N1CCc1ccccc1 ; strain: NCIM 742 ; method: agar ; value: 35 µg/mL
N#Cc1ccc(Nc2nc(Oc3cccc4cccnc34)nc(N3CCN(c4ccccn4)CC3)n2)cc1C(F)(F)F ; strain: MTCC 282 ; method: agar ; value: 12.5 µg/mL
C=C(C(=O)O[C@H]1C[C@]2(C)[C@H]([C@@H](CO)CC[C@H]2O)[C@H]2OC(=O)C(=C)[C@@H]21)C(O)COC(C)=O ; strain: ATCC 6275 ; value: 0.5 µg/mL
C/C(=N\NC(=S)Nc1cccc(Cl)c1)c1c(O)ccc2c(C)cc(=O)oc12 ; value: 10 µg/mL
Cn1c(=O)cc(Oc2nc(Nc3ccc(C#N)cc3)nc(Oc3cc(=O)oc4ccccc34)n2)c2ccccc21 ; strain: MTCC 2825 ; method: agar ; value: 200 µg/mL
Cc1[nH]cnc1C(=O)NN=C1SC(CC(=O)O)C(=O)N1c1ccc(F)cc1 ; strain: UFPEDA 2003 ; method: broth dilution ; value: 350 µg/mL
CC1=[N+](C)N(c2ccccc2)C(=O)C1Nc1nc(Nc2ccc(C#N)cc2)nc(Oc2cc(=O)n(C)c3ccccc23)n1 ; strain: MTCC 2825 ; method: agar ; value: 200 µg/mL
O=C(O)CCNCC(=O)Nc1cccc2c1C(=O)c1ccccc1C2=O ; strain: VKM F-1119 ; value: >500 µg/mL
CC[C@@]1(O)C(=O)OCc2c1cc1n(c2=O)Cc2cc3c(CN(C)C)c(O)ccc3nc2-1 ; strain: NCPF 7162 ; value: >100 µM
CCCCOc1ccc(-c2csc(NS(=O)(=O)C3C(=O)ONN3c3ccc(C)cc3)n2)cc1 ; strain: MTCC 282 ; method: broth dilution ; value: 200 µg/mL
C[C@H]1[C@H](O)[C@@H](C)/C=C/C=C/C=C/C=C/C=C/C=C/C=C/[C@H](O[C@@H]2O[C@H](C)[C@@H](O)[C@H](N)[C@@H]2O)C[C@@H]2O[C@](O)(C[C@@H](O)C[C@@H](O)CC[C@H](O)[C@@H](O)C[C@@H](O)CC(=O)O[C@H]1C)C[C@H](O)[C@H]2C(=O)O ; strain: NBRC 105649 ; method: broth dilution ; setting: 48 h ; value: 1 µg/mL
COc1ccc(-c2nc3ccccc3c(=O)n2-c2ccc(NS(=O)(=O)C3C(=O)ONN3c3ccc(C)cc3)cc2)cc1 ; strain: MTCC 282 ; method: broth dilution ; value: 1000 µg/mL
COc1cc(-c2nnc(Sc3nc(Nc4ccc(C#N)cc4)nc(Oc4cc(=O)n(C)c5ccccc45)n3)o2)cc(OC)c1OC ; strain: MTCC 2825 ; method: agar ; value: 25 µg/mL
CCC(C)CC(C)CCCCCCCCC(=O)N[C@H]1C[C@@H](O)[C@H](NCCN)NC(=O)[C@@H]2[C@@H](O)CCN2C(=O)[C@H]([C@H](O)CCN)NC(=O)[C@H]([C@H](O)[C@@H](O)c2ccc(O)cc2)NC(=O)[C@@H]2C[C@@H](O)CN2C(=O)[C@H]([C@@H](C)O)NC1=O ; strain: ND254 ; method: broth dilution ; value: 0.125 µg/mL
c1ccc(-c2n[nH]c(-c3cn(C4CCNCC4)nn3)n2)cc1 ; method: agar ; value: 70 µg/mL
O=C1CCC(c2ccccc2)=NN1Cc1n[nH]c(=S)n1-c1ccc(Br)cc1 ; value: 5 µg/mL
CCCCCCCC(=O)NC(CCCN)C(=O)NC(CCCN)C(N)=O ; strain: ATCC 64028 ; method: broth dilution ; value: >100 µg/mL
O=C1CCC(c2ccccc2)=NN1Cc1n[nH]c(=S)n1-c1ccccc1 ; value: 5 µg/mL
Cc1cc(=O)oc2c(C=NCCN=Cc3c([O-])ccc4c(C)cc(=O)oc34)c([O-])ccc12.[O]=[V+2] ; value: 10 µg/mL
CCN1CCC(n2cc(-c3nc(-c4ccc(OC)cc4)n[nH]3)nn2)CC1 ; method: agar ; value: 50 µg/mL
O=C1CCC(c2ccc(Br)cc2)=NN1Cc1n[nH]c(=S)n1-c1ccc(Cl)cc1 ; value: 7 µg/mL
Cc1cnc(N2C(=O)CSC2c2c(Cl)cccc2Cl)c(C)c1 ; strain: NCIM 742 ; method: agar ; value: 42 µg/mL
O=C(CN1CCOCC1)Nc1nc(-c2ccccc2)cc(-c2ccc(F)cc2)n1 ; value: 25 µg/mL
CCN=C(Nc1ccc(C)cc1)N(CC)c1nc2ccc(C)cc2s1 ; value: 100–120 µg/mL
[I][Cd][I].[I][Cd][I].c1cnc2c(SCc3ccncc3)cccc2c1.c1cnc2c(SCc3ccncc3)cccc2c1 ; method: broth dilution / visual reading ; value: >101 µM
O=C(O)CCC(NCC(=O)Nc1cccc2c1C(=O)c1ccccc1C2=O)C(=O)O ; strain: VKM F-1119 ; value: >500 µg/mL
Cc1cc(=O)oc2c(C=Nc3ccccc3N=Cc3c([O-])ccc4c(C)cc(=O)oc34)c([O-])ccc12.[O]=[V+2] ; value: 10 µg/mL
COc1c(CN(C)C)cccc1C1OC(c2ccncc2)=NN1C(C)=Nc1ccccc1 ; strain: MTCC 8189 ; value: 25 µg/mL
CCN=C(Nc1ccccc1)N(CC)c1nc2ccccc2s1 ; value: 100–120 µg/mL
C[C@H]1N(C(=O)c2ccc(C(F)(F)F)cc2)C[C@@H](O)O[C@@]1(Cn1cncn1)c1ccc(F)cc1F ; strain: Isolate 1 ; value: 100 µg/mL
CN[C@H](CC(C)C)C(=O)N[C@H]1C(=O)N[C@@H](CC(N)=O)C(=O)N[C@H]2C(=O)N[C@H]3C(=O)N[C@H](C(=O)N[C@H](C(=O)O)c4cc(O)cc(O)c4-c4cc3ccc4O)[C@H](O)c3ccc(c(Cl)c3)Oc3cc2cc(c3O[C@@H]2O[C@H](CO)[C@@H](O)[C@H](O)[C@H]2O[C@H]2C[C@](C)(N)[C@H](O)[C@H](C)O2)Oc2ccc(cc2Cl)[C@H]1O ; strain: VKM F-1119 ; value: 31.2 µg/mL
CCN=C(Nc1ccc(OC)cc1)N(CC)c1nc2ccc(OC)cc2s1 ; value: 60–80 µg/mL
CCCCCCCCCC(=O)NC(CCCN)C(N)=O ; strain: ATCC 64028 ; method: broth dilution ; value: >100 µg/mL
O=[N+]([O-])c1ccc(N/N=C/C=C/c2ccccc2)c([N+](=O)[O-])c1 ; method: agar ; value: 30 µg/mL
Nc1ccc(C2SCC(=O)N2c2ccc(Cl)cc2)cc1 ; strain: NCIM 742 ; method: agar ; value: 71 µg/mL

Repeating the first 5 entries:

{"structure": "CCCCCCCCCCCCCCCC(=O)NC(CCCN)C(=O)NC(CCCN)C(=O)NC(CCCN)C(=O)NC(CCCN)C(=O)NC(CCCN)C(N)=O", "strain": "ATCC 64028", "method": "broth dilution", "value": "1.5 µg/mL"}
{"structure": "Nc1scc2c1c(=O)oc1ccc3ccccc3c12", "method": "broth dilution", "value": "32 µg/mL"}
{"structure": "C=C1C(=O)O[C@H]2[C@H]1[C@@H](O)C[C@]1(C)[C@@H]2[C@@H](CO)CC[C@H]1O", "strain": "ATCC 6275", "value": "0.25 µg/mL"}
{"structure": "O=C(O)CCCNCC(=O)Nc1cccc2c1C(=O)c1ccccc1C2=O", "strain": "VKM F-1119", "value": "1.9 µg/mL"}
{"structure": "Cc1cccnc1N1C(=O)CSC1c1c(C)cccc1C", "strain": "NCIM 742", "method": "agar", "value": "71 µg/mL"}